For 58 molecules, inhibition results are on record in PubChem BioAssay AID1863 (Southern Research Specialized Biocontainment Screening …, 2009).

Each structure is given as a SMILES string. This is a selection; strong and weak results do not stand in their true shares. Measured potencies and affinities stand elsewhere. The source made the active and inactive calls.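 Rule for the calls: active = inhibition over 29.93%, a cutoff 3 SD above the screen mean, later confirmed by dose response; inconclusive = inhibition over 29.93% but no dose response follow-up; inactive = inhibition at most 29.93% or unconfirmed.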

The nature of this test: inhibitors of PhoP regulon expression, primary screen, Salmonella Typhimurium, GFP reporter (AID 1863).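 Note: 0% = low Mg2+ inducing control and 100% = high Mg2+ repressing control.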 Conditions: S. Typhimurium PhoP-regulated promoter GFP reporter, 4 h; at 50 µM; stronger effect = higher value.
Broadly, the inhibition is the change of the read-out against control, counted positive when it falls. As for `COc1ccc(CN(CCCl)CCCl)cc1Cl`, the inhibition was inactive: -4.96%. The same measure for `CN(C)c1cccc(C(=O)NCC2(N3CCCCC3)CCCCC2)c1`: inactive: -0.63%; for `CC(C)c1ccc(NC2CCN(C(=O)OC(C)(C)C)CC2)cc1`: inactive: -3.01%; for `COc1cc(OC)c(C(=O)NCC2(N(C)C)CCCCC2)cc1OC`: inactive: -3.34%.

For `CCCOc1ccc(C(=O)NCC2(N(C)C)CCCCC2)cc1OC`, the inhibition is inactive: 5.09%. The same measure for `O=C(NCC1(N2CCCCC2)CCCCC1)c1ccc(OC(F)F)cc1`: inactive: -9.27%. The same measure for `O=C(NCC1(N2CCCCC2)CCCCC1)c1cccc([N+](=O)[O-])c1`: inactive: -2.72%; for `CCN1CCC(Nc2ccc(Cl)cc2)CC1`: inactive: 1.76%.

As for `N#CC1(Nc2ccccc2)CCN(CCc2ccccc2)CC1`, the inhibition is inactive: 2.89%.

In the case of `O=C(NCC1(N2CCCCC2)CCCCC1)c1cccc(C(F)(F)F)c1`, the inhibition was inactive: -1.83%. Consider `COc1ccc(NC2CCN(C(=O)OC(C)(C)C)CC2)cc1`, for which the inhibition was inactive: -7.37%. The same measure for `CN1CCN(CCOC(=O)C(O)(c2ccccc2)c2ccccc2)CC1`: inactive: -26.3%; for `O=C(NCC1(N2CCOCC2)CCCCC1)c1cc(=O)[nH]c2ccccc12`: inactive: 22.3%. The value for `COc1cc(C(=O)NCC2(N3CCCCC3)CCCCC2)ccc1OC(F)F` was inactive: 0.24%. The value for `CCOc1ccc(C)cc1CN(CCCl)CCCl` was inactive: -13.6%; that for `O=C(NCC1(N2CCCCC2)CCCCC1)c1ccc(F)cc1` was inactive: -0.4%; that for `CCOC(=O)N1CCC(Nc2ccc(F)cc2)CC1` was inactive: 10.9%. For the molecule `COc1ccc(NC2CCN(CCc3ccccc3)CC2)c(OC)c1`, the inhibition is inactive: 4.63%. Take `CCOC(=O)N1CCC(Nc2cccc(C)c2)CC1`: the inhibition is inactive: 8.01%. With `COc1cc(C(=O)NCC2(N(C)C)CCCCC2)ccc1OC(F)F`, the inhibition is inactive: 5.46%. The same measure for `Cc1ccc(OCC(C)C)c(CN(CCCl)CCCl)c1`: inactive: -4.22%; for `O=C(NCC1(N2CCCCC2)CCCCC1)c1ccc(=O)[nH]c1`: inactive: 8.1%.

For the molecule `O=C(NCC1(N2CCCCC2)CCCCC1)c1cccs1`, the inhibition is inactive: -6.94%. The value for `COc1ccc(C(=O)NCC2(N3CCCCC3)CCCCC2)cc1` was inactive: 1.6%; that for `COc1ccc(C(=O)NCC2(N3CCCCC3)CCCCC2)c(OC)c1OC` was inactive: -1.51%; that for `CC(C)(C)OC(=O)N1CCC(N(C(=O)c2ccccc2)c2ccc(F)cc2)CC1` was inactive: -6.9%.

Take `CSc1ccccc1C(=O)NCC1(N2CCCCC2)CCCCC1`: the inhibition was inactive: -5.26%. As to `O=C(NCC1(N2CCOCC2)CCCCC1)c1cc2ccccc2o1`, the inhibition was inactive: -2.23%. The same measure for `O=C(NCC1(N2CCCCC2)CCCCC1)c1ccc(Cl)nc1`: inactive: 2.09%. The value for `Cc1cc(C)cc(N(C(=O)c2ccccc2)C2CCN(C(=O)OC(C)(C)C)CC2)c1` was inactive: 11.5%; that for `CCOC(=O)N1CCC(Nc2ccc(OC)cc2)CC1` was inactive: -3.89%. The value for `N#CC1(Nc2ccccc2)CCN(Cc2ccccc2)CC1` was inactive: -2.98%. On to `O=C(OC1CN2CCC1CC2)C1c2ccccc2Oc2ccccc21` (stereo not drawn), for which the inhibition was inactive: 6.58%.

For `CCOc1ncccc1C(=O)NCC1(N2CCOCC2)CCCCC1`, the inhibition is inactive: -1.65%. Consider `CN1CCC(Nc2ccc(F)c(Cl)c2)CC1`, for which the inhibition was inactive: -7.34%.

Take `CCCOc1ccc(C(=O)NCC2(N(C)C)CCCCC2)cc1`: the inhibition is inactive: -2.31%. The same measure for `CC(C)(C)OC(=O)N1CCC(Nc2ccccc2)CC1`: inactive: 1.61%; for `O=C(O)C1(Nc2ccccc2)CCN(Cc2ccccc2)CC1`: inactive: -4.96%. The value for `CCC(CO)(C(=O)OC1CN2CCC1CC2)c1ccccc1` (stereo not drawn) was inactive: -4.03%. The same measure for `COc1cccc(C(=O)N(c2cc(C)cc(C)c2)C2CCN(C(=O)OC(C)(C)C)CC2)c1`: inactive: -4.27%; for `COc1cc(OC)cc(C(=O)NCC2(N3CCOCC3)CCCCC2)c1`: inactive: 5.31%; for `CCCOc1ccc(C)cc1CN(CCCl)CCCl`: inactive: -9.5%. `CN1CCC(Nc2ccc(Cl)cc2)CC1`: the inhibition is inactive: -6.01%.

With `COc1cc(OC)cc(C(=O)NCC2(N3CCCCC3)CCCCC2)c1`, the inhibition is inactive: 3.45%. The value for `Cc1ccc(C(=O)NCC2(N3CCCCC3)CCCCC2)o1` was inactive: 8.39%; that for `Fc1ccccc1NC1CCN(Cc2ccccc2)CC1` was inactive: 7.46%. The value for `CCN1CCC(Nc2cccc(F)c2)CC1` was inactive: 11.2%; that for `CN(C)c1ccc(C(=O)NCC2(N3CCCCC3)CCCCC2)cc1` was inactive: -0.54%. The same measure for `CC(C)(C)OC(=O)N1CCC(N(C(=O)c2ccccc2)c2ccc(Cl)cc2)CC1`: inactive: 10.9%; for `N#Cc1ccc(C(=O)NCC2(N3CCCCC3)CCCCC2)cc1`: inactive: 6.81%; for `c1ccc(CN2CCC(Nc3ccccc3)CC2)cc1`: inactive: 13.3%. For the molecule `CCCN1CCC(Nc2cc(OC)cc(OC)c2)CC1`, the inhibition is inactive: -1.54%. The same measure for `CN(C)C1(CNC(=O)c2cccc(C#N)c2)CCCCC1`: inactive: -1.29%.

For `COc1ccc(C(=O)NCC2(N3CCOCC3)CCCCC2)cc1OC`, the inhibition is inactive: 2.33%.

With `N/C(=N\O)c1c(N)no[n+]1[O-]`, the inhibition was inactive: 3.91%. The same measure for `CCOC(=O)N1CCC(Nc2ccc(C)cc2)CC1`: inactive: -3.94%; for `CCc1cc(C(=O)NCC2(N3CCCCC3)CCCCC2)sc1C`: inactive: -4.19%; for `O=C(OC1CN2CCC1CC2)C1c2ccccc2C=Cc2ccccc21` (stereo not drawn): inactive: 12.7%.
